# PubChem BioAssay AID624099 – ICCB-Longwood – 2012
# Test: 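Host factors E2 relies on to silence an HPV18 LCR reporter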 (primary screen)
# System: human C33A cervical carcinoma cells (HPV-negative) stably expressing BPV1 E2 and an HPV18 LCR luciferase reporter
# Reagent: siRNA pool against human genes, 40 nM
# Timing: 72 h
# Detection: 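HPV18 LCR reporter light per well, converted to plate-wise z-scores that exclude control wells, and averaged over triplicate plates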
# Direction: mean z-score and z-score: higher = stronger reporter signal, weaker E2 silencing
# Call rule: 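Mean z ≥ 2 together with z ≥ 2 in two or more of the three replicates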
# Here is an unselected part of about 21,000 reagents tested. In the full data, 497 (2.4%) got an active call. 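Higher z means weaker E2 silencing; only reporter increases were scored, and knock-downs that hurt cell survival may mask genuine repressor factors.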 Reagents against one gene are numbered here.
gene,reagent no.,mean z-score,"z-score, replicate A","z-score, replicate B","z-score, replicate C",activity call
AQP12B,1,-0.77,-1.01,-0.8,-0.5,inactive
ARFIP2,1,-0.07,-0.73,0.29,0.22,inactive
FBLL1,1,-0.96,-1.23,-0.68,-0.97,inactive
KRT7,1,-0.03,-0.06,-0.4,0.39,inactive
MAPK13,1,-1.51,-1.9,-1.38,-1.24,inactive
NME7,1,0.78,0.55,0.58,1.2,inactive
IFT80,1,0.49,0.75,0.43,0.28,inactive
TMPRSS7,1,0.43,0.23,0.25,0.8,inactive
SPATA7,1,1.76,1.66,1.93,1.7,inactive
GNAI2P2,1,-0.24,-0.58,0.02,-0.16,inactive
SMC4,1,-0.63,-0.94,-0.23,-0.72,inactive
PHLDA3,1,-1.7,-1.97,-1.49,-1.64,inactive
LOC285188 (retired record),1,-0.69,-0.88,-0.23,-0.96,inactive
BACC1,1,0.01,0.15,-0.2,0.08,inactive
PHF20L1,1,0.01,-0.41,0.34,0.1,inactive
STK38L,1,0.18,0.35,0.52,-0.32,inactive
RHOJ,1,1.36,1.21,1.4,1.49,inactive
KRTAP12-2,1,-0.51,-0.22,-0.87,-0.45,inactive
LOC284269,1,0.7,0.94,0.29,0.87,inactive
FNTB,1,-1.12,-1.08,-1.49,-0.8,inactive
NCALD,1,-0.56,-0.6,-0.7,-0.38,inactive
GDF10,1,0.41,0.84,0.24,0.16,inactive
PFDN5,1,0.62,0.7,0.71,0.44,inactive
ADAM33,1,-0.52,-0.67,-0.42,-0.47,inactive
RORB,1,0.81,0.69,0.94,0.81,inactive
ATG9A,1,-1.14,-1.3,-0.63,-1.5,inactive
IMPDH1,1,0.08,0.26,0.07,-0.08,inactive
PTK2,1,-0.35,-0.32,-0.41,-0.32,inactive
SHF,1,0.15,0.22,0.3,-0.08,inactive
CZIB,1,0.66,1.16,0.84,-0.02,inactive
CRYBG3,1,0.57,0.11,0.77,0.84,inactive
ITPKA,1,1.14,1.37,0.87,1.17,inactive
STPG1,1,1.4,1.16,1.26,1.78,inactive
NLRC3,1,-1.41,-1.07,-1.56,-1.6,inactive
LOC402637 (retired record),1,-0.12,-0.35,0.29,-0.3,inactive
NAA40,1,-0.15,-0.6,0.02,0.14,inactive
TNC,1,0.41,0.29,0.46,0.49,inactive
TMEM270,1,-0.33,-0.36,-0.34,-0.3,inactive
LOC346910 (retired record),1,-1.41,-1.45,-1.56,-1.21,inactive
N4BP1,1,-1.1,-0.79,-1.28,-1.23,inactive
N4BP1,2,2.19,2.45,1.86,2.27,active
MCM3,1,0.35,0.1,0.3,0.66,inactive
KIF13A,1,1.13,1.3,1.26,0.83,inactive
ZNF789,1,-0.45,-0.5,-0.52,-0.32,inactive
IRF4,1,-1.24,-1.19,-1.09,-1.44,inactive
MINPP1,1,0.59,0.78,0.44,0.55,inactive
GPC6,1,-0.52,-0.54,-0.44,-0.58,inactive
CLIC2,1,-0.21,-0.12,-0.2,-0.31,inactive
KCNH6,1,-1.02,-0.61,-1.05,-1.39,inactive
MXRA8,1,-0.19,0.12,-0.35,-0.34,inactive
TBCCD1,1,-1.22,-1.13,-1.43,-1.11,inactive
GPRC5C,1,1.16,1.18,1.08,1.21,inactive
TEX9,1,0.36,0.13,0.35,0.59,inactive
LOC402286 (retired record),1,0.62,0.82,0.49,0.56,inactive
UBA1,1,0.77,0.74,0.47,1.1,inactive
CFAP221,1,-0.11,-0.29,-0.16,0.11,inactive
PCIF1,1,1.56,1.02,1.19,2.47,inactive
